Tests used:
[1] = system: IAV A/PR8/34 (H1N1) RNP complexes; test: Immunofluorescence of nuclear export of viral RNP complexes in A549 cells; assay type: cell-based, influenza A virus; conditions: 20 μM, 6 hours post infection
[2] = system: A/Mallard/Bavaria/01/2006 (MB 1, H5N1); test: In vitro study in infected MDCK II cells; assay type: cell-based, influenza A virus; conditions: MOI 0.001, 24 h
[3] = system: panH1N1 (RB1); test: In vitro activity in cell culture, panH1N1; assay type: cell-based, influenza A virus
[4] = system: FPV; test: In vitro activity in cell culture, FPV; assay type: cell-based, influenza A virus
[5] = system: H1N1pdm09 A/Regensburg/06/2009
[6] = system: H3N2 A/Victoria/03/1975, H5N1 A/mallard/Bavaria/1/2006, H7N7 A/FPV/Bratislava/79, H7N9 A/Anhui/1/2013; conditions: 10 M CI-1040, A549 cells

O=C(NOCC1CC1)c1ccc(F)c(F)c1Nc1ccc(I)cc1Cl
nuclear export of viral RNPs [1]: blocks the export step
potency in cell culture [2]: highly potent
potency in cell culture [3]: also potent
potency in cell culture [4]: also potent
EC50 [5]: 0.026 µM
antiviral activity against prototype strains [6]: consistently strong antiviral activity

Reference: US20190298669A1 (priority 2018, published 2019)
